Compound potency records, mixed from different reports. Data source: NIAID ChemDB in PubChem.

A number after MIC or MFC names an inhibition level or a share of isolates. CCn: concentration that lowers growth or viability of the cells by n%. An empty or dashed field is not shown. Percent inhibition refers to the dose given; in toxicity tests it is the harm to the cells. ECn: concentration that inhibits the pathogen or its effect by n%. ICn: concentration for n% inhibition. Lines come from different laboratories, so protocols vary.

compound,tested at,cell line,method,endpoint,strain or isolate,species,kind,protein,value
Oc1ccc(O)c(C=Nc2ccccc2O)c1,,,,MIC99,L 27/01,Cryptococcus gattii,culture,,11.3 µg/mL
O=C(Nc1ccc2c(O)c(N=Nc3ccc(N=Nc4ccc(S(=O)(=O)O)cc4)cc3)c(S(=O)(=O)O)cc2c1)c1ccccc1,50 µg/mL,Human amnion AV3 cells,cytopathic effect,inhibition,,Herpes simplex virus,culture,,40%
CC(=O)c1ccc(-c2cncc(N3CCN(c4cccc(C)c4C)CC3)n2)cc1,,,,IC50,,Cytomegalovirus,target,UL97 kinase,<100 µM
Fc1ccc(N2CCCCC2)c(NC(=S)c2ccncc2)c1,10 µM,,kinase activity,inhibition,,,host protein,PDGFRbeta,-2%
CN(C)c1ccc(-c2cncc(N3CCN(c4cccc(Cl)c4)CC3)n2)cc1,,,,IC50,,Cytomegalovirus,target,UL97 kinase,<100 µM
CCOC(=O)/C=C/[C@H](C[C@@H]1CCNC1=O)NC(=O)[C@@H](CC(=O)[C@@H](NC(=O)c1cc(C)on1)C(C)C)Cc1ccc(F)cc1,,OHIO HELA-I,cytopathic effect / visual reading,EC50,Isolate 46,Rhinovirus,culture,,0.02 µg/mL
Nc1cccc(-c2cnc3c(c2)c(O)cc(=O)n3O)c1,,HeLa,,CC50,,,toxicity,,<100 µM
Oc1ccccc1N=Cc1ccc(F)cc1,,,,MIC99,L 27/01,Cryptococcus gattii,culture,,64 µg/mL
O=S(=O)([O-])c1cc(O)c2ccccc2c1,10 µg/mL,Human amnion AV3 cells,cytopathic effect,inhibition,,Herpes simplex virus,culture,,0%
N#Cc1ccc(-c2cncc(N3CCN(c4ccccn4)CC3)n2)cc1,,,,IC50,,Cytomegalovirus,target,UL97 kinase,<10 µM
O=S(=O)([O-])c1ccc2c(O)cc(S(=O)(=O)[O-])cc2c1,5 µg/mL,Human conjunctiva cells,cytopathic effect,inhibition,,Herpes simplex virus,culture,,0%
CCC(CC)[C@H](NC(C)=O)[C@@H]1[C@H](O)[C@@H](C(=O)O)C[C@H]1N=C(N)N,,MDCK,,EC50,Influenza A/Johannesburg/33/94 (H3N2),Influenza A virus,culture,,0.16 µM
Nc1ccc(-c2ccc3c(c2)CN(c2cc(=O)n(O)c4ncccc24)CC3)cc1,,HeLa,,CC50,,,toxicity,,<100 µM
Oc1ccccc1C=Nc1ccccc1O,,,,MIC99,29/10893,Cryptococcus gattii,culture,,8 µg/mL
COc1ccc(Cl)cc1-c1cncc(N2CCN(c3ccccc3)CC2)n1,,,,IC50,,Cytomegalovirus,target,UL97 kinase,<100 µM
CCOC(=O)c1ccc(OCCC2CCN(c3ccc(C)nn3)CC2)cc1,,KB,neutral red,EC50,1794 (ICAM-1 receptor group 40),Rhinovirus,culture,,0.001 µM
Oc1cccc(C=Nc2ccccc2O)c1,,,,MIC99,ATCC 28957,Cryptococcus neoformans,culture,,2.8 µg/mL
COc1cccc(-c2cncc(N3CCN(c4ccc(Cl)cc4)CC3)n2)c1,1 µM,,,inhibition,,Cytomegalovirus,target,UL97 kinase,<50%
O=C(Nc1c(S(=O)(=O)[O-])cc2cc(S(=O)(=O)[O-])cc(O)c2c1O)c1ccccc1,50 µg/mL,Human amnion AV3 cells,cytopathic effect,inhibition,,Rhinovirus,culture,,85%
CCOC(=O)c1c(C)nc(NCCCCNc2ccnc3cc(Cl)ccc23)nc1-c1ccccc1[N+](=O)[O-],,,,MIC99,27JF,Cryptococcus neoformans,culture,,4 µg/mL
O=c1cc(NCc2cnc(-c3ccccc3)[nH]2)c2cccnc2n1O,,HeLa,,CC50,,,toxicity,,<100 µM
O=C1C(c2[nH]c3ccc(S(=O)(=O)O)cc3c2O)=Nc2ccc(S(=O)(=O)O)cc21,10 µg/mL,Human conjunctiva cells,cytopathic effect,inhibition,,Herpes simplex virus,culture,,0%
CCOC(=O)c1c(C)nc(NCCCNc2ccnc3cc(Cl)ccc23)nc1-c1ccccc1,,,,MIC99,L 27/01,Cryptococcus gattii,culture,,32 µg/mL
Fc1cccc(-c2cncc(N3CCN(c4ccncc4)CC3)n2)c1,,,,IC50,,Cytomegalovirus,target,UL97 kinase,<100 µM
COc1cc(-c2ccc(N=Nc3ccc4c(S(=O)(=O)O)cc(S(=O)(=O)O)c(N)c4c3O)c(OC)c2)ccc1N=Nc1ccc2c(S(=O)(=O)O)cc(S(=O)(=O)O)c(N)c2c1O,10 µg/mL,Human embryonic lung cells,cytopathic effect,inhibition,TYPE 3,Adenovirus,culture,,0%
C=CCc1ccc(O)c(OC)c1,,,turbidity,MIC90,2863,Candida tropicalis,culture,,495 µg/mL
Cc1cc(-c2ccc(N=Nc3c(S(=O)(=O)O)cc4cc(S(=O)(=O)O)cc(N)c4c3O)c(C)c2)ccc1N=Nc1c(S(=O)(=O)O)cc2cc(S(=O)(=O)O)cc(N)c2c1O,5 µg/mL,Human conjunctiva cells,cytopathic effect,inhibition,,Herpes simplex virus,culture,,30%
Cc1nc(NCCCCNc2ccnc3cc(Cl)ccc23)nc(-c2ccccc2[N+](=O)[O-])c1C(=O)OC(C)C,,,,MIC99,L 27/01,Cryptococcus gattii,culture,,32 µg/mL
Nc1ccc2c(O)cc(S(=O)(=O)[O-])cc2c1S(=O)(=O)[O-],50 µg/mL,Human embryonic lung cells,cytopathic effect,inhibition,,Rhinovirus,culture,,70%
CCOC(=O)c1c(O)c2cc(-c3cccc(CN4CCOCC4)c3)cnc2n(O)c1=O,,HeLa,,CC50,,,toxicity,,0.1 µM

The first 2 rows once more:

compound | tested at | cell line | method | endpoint | strain or isolate | species | kind | protein | value
Oc1ccc(O)c(C=Nc2ccccc2O)c1 |  |  |  | MIC99 | L 27/01 | Cryptococcus gattii | culture |  | 11.3 µg/mL
O=C(Nc1ccc2c(O)c(N=Nc3ccc(N=Nc4ccc(S(=O)(=O)O)cc4)cc3)c(S(=O)(=O)O)cc2c1)c1ccccc1 | 50 µg/mL | Human amnion AV3 cells | cytopathic effect | inhibition |  | Herpes simplex virus | culture |  | 40%